Results of unrelated studies side by side (data: NIAID ChemDB).

Common to all: whole-cell or culture tests; agent: Plasmodium falciparum; endpoint: EC50

Conditions beyond the fields shown may differ between rows. Blank or dashed fields: not listed here. ECn is the concentration giving n% inhibition of infection, replication or growth.

COc1cc(OC)c(C=C2SC(=O)N(Cc3ccc(C(F)(F)F)cc3)C2=O)c(OC)c1 ; strain or isolate: W2 ; changes: Chloroquine-resistant ; method: fluorescence ; value: >10 µM
CN(O)C(=O)CCC(c1ccccc1)P(=O)(O)O ; strain or isolate: K1 ; cell line: RBC ; method: absorbance ; value: 0.59 µM
c1ccc2cc(OCCCCCN3CCCCC3)ccc2c1 ; strain or isolate: 3D7 ; cell line: Erythrocytes ; method: flow cytometry ; value: >12.6 µM
CC(=O)N(O)CCCP(=O)(O)O ; strain or isolate: K1 ; cell line: RBC ; method: absorbance ; value: 1.48 µM
COc1cc(OC)c(C=C2SC(=O)N(Cc3ccc(F)cc3)C2=O)c(OC)c1 ; strain or isolate: W2 ; changes: Chloroquine-resistant ; method: fluorescence ; value: 8.75 µM
Cc1cccc(OC2CN(C(=O)c3ccccc3Cl)C2)c1 ; strain or isolate: Dd2 ; value: 32.6 µM
CC(C)(O)[C@H](O)COc1c2occc2cc2ccc(=O)oc12 ; strain or isolate: CQ-resistant ; cell line: RBC ; value: 6 µg/mL
C[C@@H]1C[C@H](C)C[C@H](C)[C@@H](O)CC(=O)O[C@@H](C2CCC[C@H]2C(=O)O)C/C=C/C=C(/CN)[C@H](O)[C@@H](C)C1 ; strain or isolate: FCR3 ; cell line: Erythrocyte ; method: LDH ; value: 0.00088 µg/mL
Cc1cccc(OCCNC(=O)c2ccc(N(C)C)cc2Cl)c1 ; strain or isolate: Dd2 ; value: >50 µM
O=c1c2ccccc2ncn1CCCC1NCCCC[C@@H]1O ; strain or isolate: K1 ; cell line: Human A+ erythrocytes ; method: LDH / absorbance ; value: 0.725 µg/mL
C=CCOc1ccc(CNC(C)C(O)c2ccccc2)cc1 ; strain or isolate: K1 ; cell line: Erythrocytes ; method: flow cytometry ; value: >12 µM
O=C(CN1C(=O)SC(=Cc2cccc(F)c2)C1=O)N1CCN(c2ccccc2)CC1 ; strain or isolate: W2 ; changes: Chloroquine-resistant ; method: fluorescence ; value: >10 µM
COc1ccc(Cc2c3cc(OC)c(OC)cc3cc[n+]2C)cc1OC ; strain or isolate: 3D7 ; cell line: Erythrocytes ; method: flow cytometry ; value: >17.1 µM
Cc1cccc(OCCNC(=O)c2ccccc2F)c1 ; strain or isolate: Dd2 ; value: 10.5 µM
O=C(CC1NCC[C@@H]1O)Cn1cnc2ccccc2c1=O ; strain or isolate: FCR3 ; cell line: Human A+ erythrocytes ; method: LDH / absorbance ; value: 0.0611 µg/mL
OC(COc1ccc(OCc2ccccc2)cc1)CN1CCCCC1 ; strain or isolate: K1 ; cell line: Erythrocytes ; method: flow cytometry ; value: 6.16 µM
C[C@@H]1CC[C@H]2[C@@H](C)C(=O)O[C@@H]3OC4(C)CC[C@@H]1[C@]32OO4 ; strain or isolate: KAE609R-1 ; changes: KAE609-resistant pfatp4 I398F/P990R/D1247Y ; method: SYBR Green / fluorescence ; value: 0.0175 µM
C[C@H]1[C@@H](OC(=O)CCC(=O)O)O[C@@H]2O[C@@]3(C)CC[C@H]4[C@H](C)CC[C@@H]1[C@@]24OO3 ; strain or isolate: F32 ; cell line: human red blood cells ; method: broth dilution / radiometric ; value: 0.018 µM
COc1ccc(CNc2ccc3[nH]c(=O)[nH]c3c2)cc1 ; strain or isolate: Dd2 ; value: >50 µM
O[C@H](c1cc(C(F)(F)F)nc2c(C(F)(F)F)cccc12)[C@@H]1CCCCN1 ; strain or isolate: GNF-Pf4492R-1 ; changes: GNF-Pf4492-resistant PfATP4 A211T ; method: SYBR Green / fluorescence ; value: 0.0135 µM
CC(C)(c1ccccc1)c1ccc(OCCCn2ccnc2)cc1 ; strain or isolate: K1 ; cell line: Erythrocytes ; method: flow cytometry ; value: >12.5 µM
CCc1ccccc1NC(=O)CSc1nc2ncccc2[nH]1 ; strain or isolate: 3D7 ; cell line: Erythrocytes ; method: microscopy ; value: 0.2345 µM
CC(O)CNCCCCOc1ccc(Cl)cc1Cc1ccccc1 ; strain or isolate: 3D7 ; cell line: Erythrocytes ; method: flow cytometry ; value: >7.06 µM
CCN1C(=O)SC(=Cc2c(OC)cc(OC)cc2OC)C1=O ; strain or isolate: W2 ; changes: Chloroquine-resistant ; method: fluorescence ; value: >10 µM
O=C(CC1NCCC[C@@H]1O)Cn1cncc(-c2ccccc2)c1=O ; strain or isolate: K1 ; cell line: Human A+ erythrocytes ; method: LDH / absorbance ; value: 0.0475 µg/mL
O=C(C[C@H]1NCCC[C@@H]1O)Cn1cnc2cc(Br)c(Cl)cc2c1=O ; cell line: HepG2 ; method: luciferase ; value: 0.0078 µM
CCN(CC)CCCC(C)Nc1ccnc2cc(Cl)ccc12 ; strain or isolate: FCR3 ; cell line: Human A+ erythrocytes ; method: LDH / absorbance ; value: 0.0475 µg/mL
Cc1cccc(OCCNC(=O)c2cccc(Cl)c2)c1 ; strain or isolate: Dd2 ; value: 26.6 µM
O=C(CC1NCCC[C@@H]1O)Cn1cnc2c(c1=O)CCCC2 ; strain or isolate: K1 ; cell line: Human A+ erythrocytes ; method: LDH / absorbance ; value: 0.0857 µg/mL
COc1ccc(Nc2cc(C)nc3c2ccc2ccccc23)cc1OC ; strain or isolate: K1 ; cell line: Erythrocytes ; method: flow cytometry ; value: >10.4 µM

4 of the rows above, restated:

SMILES | strain or isolate | changes | cell line | method | value
COc1ccc(Cc2c3cc(OC)c(OC)cc3cc[n+]2C)cc1OC | 3D7 |  | Erythrocytes | flow cytometry | >17.1 µM
O=c1c2ccccc2ncn1CCCC1NCCCC[C@@H]1O | K1 |  | Human A+ erythrocytes | LDH / absorbance | 0.725 µg/mL
O[C@H](c1cc(C(F)(F)F)nc2c(C(F)(F)F)cccc12)[C@@H]1CCCCN1 | GNF-Pf4492R-1 | GNF-Pf4492-resistant PfATP4 A211T |  | SYBR Green / fluorescence | 0.0135 µM
C=CCOc1ccc(CNC(C)C(O)c2ccccc2)cc1 | K1 |  | Erythrocytes | flow cytometry | >12 µM